Data on four compounds can be found in ChEMBL document CHEMBL5214907 (J Med Chem, 2021).

By UniProt entry, the sequences of proteins in these tests, tags left out. Residues count along the entry.
UniProt P43144, 26-479 limits assumed: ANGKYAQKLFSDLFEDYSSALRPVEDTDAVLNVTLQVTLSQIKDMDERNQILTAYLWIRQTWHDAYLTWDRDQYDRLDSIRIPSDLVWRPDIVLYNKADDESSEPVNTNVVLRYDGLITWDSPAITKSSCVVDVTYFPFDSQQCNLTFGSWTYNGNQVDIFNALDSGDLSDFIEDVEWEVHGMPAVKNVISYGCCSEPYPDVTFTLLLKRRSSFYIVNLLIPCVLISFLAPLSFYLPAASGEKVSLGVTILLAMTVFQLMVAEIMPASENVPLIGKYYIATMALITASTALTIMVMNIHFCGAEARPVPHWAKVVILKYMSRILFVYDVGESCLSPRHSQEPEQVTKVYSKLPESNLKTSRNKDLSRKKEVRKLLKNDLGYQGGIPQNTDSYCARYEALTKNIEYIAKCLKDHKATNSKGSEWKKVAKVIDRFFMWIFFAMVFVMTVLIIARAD
UniProt Q9JLB5, 25-447 limits assumed: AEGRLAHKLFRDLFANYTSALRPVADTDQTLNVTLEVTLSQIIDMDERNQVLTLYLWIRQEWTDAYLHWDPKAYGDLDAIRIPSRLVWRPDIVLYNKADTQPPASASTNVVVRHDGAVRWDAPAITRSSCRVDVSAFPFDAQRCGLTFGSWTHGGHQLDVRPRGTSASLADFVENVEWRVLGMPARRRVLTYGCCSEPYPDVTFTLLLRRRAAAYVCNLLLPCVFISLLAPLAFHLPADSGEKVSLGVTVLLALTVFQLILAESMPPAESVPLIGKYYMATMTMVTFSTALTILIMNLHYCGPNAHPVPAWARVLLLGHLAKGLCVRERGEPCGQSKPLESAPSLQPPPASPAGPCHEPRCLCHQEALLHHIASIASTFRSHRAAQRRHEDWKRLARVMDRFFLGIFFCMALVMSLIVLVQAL
UniProt Q9UGM1, 23-479 limits assumed: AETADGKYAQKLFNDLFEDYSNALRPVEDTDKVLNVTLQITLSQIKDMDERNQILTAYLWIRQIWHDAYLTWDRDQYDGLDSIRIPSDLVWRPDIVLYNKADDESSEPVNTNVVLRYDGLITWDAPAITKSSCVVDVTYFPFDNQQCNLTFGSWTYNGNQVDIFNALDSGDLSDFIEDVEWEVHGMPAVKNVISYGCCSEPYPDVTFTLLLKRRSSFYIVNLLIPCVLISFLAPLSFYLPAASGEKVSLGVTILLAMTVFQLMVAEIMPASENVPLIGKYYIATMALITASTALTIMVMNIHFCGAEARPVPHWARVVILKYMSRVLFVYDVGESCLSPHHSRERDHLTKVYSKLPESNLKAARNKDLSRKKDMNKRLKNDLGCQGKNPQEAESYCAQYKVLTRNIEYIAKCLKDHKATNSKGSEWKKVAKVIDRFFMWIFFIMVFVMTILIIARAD
UniProt Q9GZZ6, 25-450 limits assumed: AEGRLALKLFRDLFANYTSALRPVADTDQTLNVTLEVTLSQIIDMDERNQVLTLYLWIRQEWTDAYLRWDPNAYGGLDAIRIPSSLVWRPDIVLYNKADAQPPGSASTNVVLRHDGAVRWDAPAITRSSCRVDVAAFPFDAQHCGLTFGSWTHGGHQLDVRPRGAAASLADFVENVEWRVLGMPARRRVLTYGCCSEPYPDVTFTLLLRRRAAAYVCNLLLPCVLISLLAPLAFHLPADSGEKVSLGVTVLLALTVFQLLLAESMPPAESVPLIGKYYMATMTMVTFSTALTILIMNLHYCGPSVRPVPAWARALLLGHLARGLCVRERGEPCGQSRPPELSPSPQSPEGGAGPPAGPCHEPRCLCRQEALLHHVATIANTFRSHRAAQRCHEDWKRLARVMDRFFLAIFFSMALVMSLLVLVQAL

In general, IC50 refers to the midpoint of a concentration-inhibition curve.

A value given as a limit tells only on which side of the number the result lay.

The target in assay [1] is Nicotinic acetylcholine receptor alpha9/alpha10 (Rattus norvegicus, UniProt P43144+Q9JLB5). The assay can be described thus: Inhibition of rat alpha9alpha10 nAChR expressed in xenopus oocytes assessed as inhibition of Ach- induced response incubated for 5 mins in presence of Ach stimulation by voltage-clamp based electrophysiological method. The conditions noted are these: oocyte.

Assay [2] deals with Neuronal acetylcholine receptor; alpha9/alpha10 (Homo sapiens, UniProt Q9UGM1+Q9GZZ6). Particulars: oocyte.

As to `N=C(N)NCCC[C@H](NC(=O)[C@@H]1C/C=C\C[C@@H]2NC(=O)[C@@H](NC(=O)CN)CSSC[C@H](NC(=O)[C@H](CCCNC(=N)N)NC(=O)[C@@H]3CCCN3C(=O)[C@H](CC(=O)O)NC(=O)[C@H](CO)NC2=O)C(=O)N[C@@H](CCCNC(N)=O)C(=O)N[C@@H](Cc2ccc(O)cc2)C(=O)N[C@@H](CCCNC(=N)N)C(=O)N1)C(=O)O`, the IC50 in assay [1] amounted to 1.47 nM.
For `C[C@@H](O)[C@@H]1NC(=O)[C@@H]2CSSC[C@@H](C(=O)N[C@@H](Cc3ccc(O)cc3)C(=O)O)NC(=O)[C@H](CCC(N)=O)NC(=O)[C@H](Cc3ccc(O)c(I)c3)NC(=O)[C@H](CCCNC(N)=O)NC(=O)[C@H](CSSC(C)(C)[C@@H](NC(=O)CN)C(=O)N2)NC(=O)[C@H](CCCNC(=N)N)NC(=O)[C@@H]2CCCN2C(=O)[C@H](CC(=O)O)NC1=O`, the IC50 in assay [2] is greater than 1200 nM.
`N=C(N)NCCC[C@H](NC(=O)[C@@H]1C/C=C/C[C@@H]2NC(=O)[C@@H](NC(=O)CN)CSSC[C@H](NC(=O)[C@H](CCCNC(=N)N)NC(=O)[C@@H]3CCCN3C(=O)[C@H](CC(=O)O)NC(=O)[C@H](CO)NC2=O)C(=O)N[C@@H](CCCNC(N)=O)C(=O)N[C@@H](Cc2ccc(O)cc2)C(=O)N[C@@H](CCCNC(=N)N)C(=O)N1)C(=O)O`: the IC50 in assay [1] is 1.15 nM.
For `C[C@@H](O)[C@@H]1NC(=O)[C@@H]2CSSC(C)(C)[C@@H](C(=O)N[C@@H](Cc3ccc(O)cc3)C(=O)O)NC(=O)[C@H](CCC(N)=O)NC(=O)[C@H](Cc3ccc(O)c(I)c3)NC(=O)[C@H](CCCNC(N)=O)NC(=O)[C@H](CSSC[C@@H](NC(=O)CN)C(=O)N2)NC(=O)[C@H](CCCNC(=N)N)NC(=O)[C@@H]2CCCN2C(=O)[C@H](CC(=O)O)NC1=O`, in assay [2], 24 nM corresponded to half-maximal inhibition (IC50).
